This note sets out measurements from paper PMC12170906.

For at least one entry, the source does not settle the construct or the ends of the probe. At least one verdict rests on a figure or table, not on a statement of the authors. Where a protein sequence is shown, tags need not be part of it.

For the series, the target named is T1, Zur (Mycobacterium tuberculosis) (UniProt P9WN85).
T1 sequence (looked up, limits assumed): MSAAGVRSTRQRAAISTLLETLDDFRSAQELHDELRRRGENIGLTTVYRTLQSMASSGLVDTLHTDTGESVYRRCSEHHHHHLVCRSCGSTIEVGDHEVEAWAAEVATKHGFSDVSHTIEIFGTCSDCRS
Briefly: EMSA. As to conditions: 500 uM ZnCl2, 400 uM EDTA; recombinant protein; protein details: N-terminal His6 with TEV site, tag removed by TEV.

Turning to “CCTTCCTTCGAAGCTCGGCTTATTGAAAATCATTTTCGACAACAGCTAGGTGGCACTGTA (double strand) [Rv2059 Zur site 60-mer]”, the binding result is “binds”.

With “GCTAGGTGGCACTGTACCGTCGACGTCGCAATAATGAAAACTGTTATCGATAAGGAGGAC (double strand) [rpmB2 Zur site 60-mer]”, the binding result was “binds”.
